Measured values published in BindingDB's records for doi:10.1021/bi051886s (Johnson & Johnson Pharmaceutical, 2006).

Target: T1, Dimer of Gag-Pol polyprotein [501-599] (Human immunodeficiency virus 1, UniProt P03367)
T1 construct: 501-599
Experiment: Protease Inhibition Assay
Conditions: pH 4.7; 37 °C

Compound `COC(=O)N[C@H](C(=O)N[C@@H](Cc1ccccc1)[C@@H](O)CN(Cc1ccc(-c2ccccn2)cc1)NC(=O)[C@@H](NC(=O)OC)C(C)(C)C)C(C)(C)C` [CGP 73547] has a Ki of 480 pM.
